Measured values from several laboratories, pooled; numbers as filed in NIAID ChemDB.

All rows: whole-cell or culture tests; species: Mycobacterium tuberculosis

An empty or dashed field is not shown. ECn is the concentration giving n% inhibition of infection, replication or growth. Percent inhibition refers to the dose given; in toxicity tests it is the harm to the cells. MIC bound comes from a single tested concentration. Conditions beyond the fields shown may differ between rows. A number after MIC or MFC names an inhibition level or a share of isolates. a–b is a range or a potency band. Fold resistance has wild type as its base.

SMILES | strain | tested at | measure | mutations | read by | cell line | result
O=c1oc2ccccc2cc1-c1cs/c(=N\N=C\c2cc(Br)ccc2O)n1C1CCCCC1 | H37Rv | 12.5 µg/mL | inhibition |  |  |  | 83%
CCOC(=O)C(NC(=O)CC)(Nc1ccc(S(=O)(=O)Nc2onc(C)c2C)cc1)C(F)(F)F | H37Rv | 12.5 µg/mL | inhibition |  | BACTEC |  | 0%
NNC(=O)c1ccncc1 | Pan-susceptible clinical isolate 4 |  | MIC |  |  |  | 0.06 µg/mL
Cc1cccc(NC(=O)Nc2nc(Cl)cc3c2ncn3C)c1 | H37Rv |  | MIC99 |  | visual reading |  | 25 µM
CCCCNC(=S)N=Nc1c(O)[nH]c2ccc(OC(F)(F)F)cc12 | H37Rv |  | EC90 |  | broth dilution / resazurin |  | >100 µg/mL
Cn1c(NNc2nc(Nc3ccc(F)c(Cl)c3)nc(Nc3ccc(F)c(Cl)c3)n2)nc(-c2ccc(Cl)cc2)c(C#N)c1=O | H37Rv | 12.5 µg/mL | inhibition |  |  | VERO | 98%
CCC[CH2][Sn]1([CH2]CCC)[O]C2C(O)OC(CO)C(O)C2[O]1 | H37Rv |  | MIC |  | BACTEC |  | 3.13 µg/mL
CCCCCCCCOc1ccc(NC(=O)OCCN2CCCCCC2)cc1 | My 331/88 |  | MIC |  |  |  | 8 µM
COc1cc2c(cc1OC)-c1cc3ccc(OC)c(OC)c3c[n+]1CC2 | H37Rv |  | MIC |  | BACTEC |  | ≥12.5 µg/mL
CCNC(=S)N=Nc1c(O)[nH]c2ccc(C)cc12 | H37Rv |  | EC90 |  | broth dilution / resazurin |  | >100 µg/mL
Cl.O=C(O)c1cc(N=C=S)ccc1-c1c2ccc(=O)cc-2oc2cc(O)ccc12 | H37Rv |  | MIC bound |  | BACTEC |  | >12.5 µg/mL
Cn1c(NNc2nc(Nc3cccc([N+](=O)[O-])c3)nc(Nc3cccc([N+](=O)[O-])c3)n2)nc(-c2ccc(Cl)cc2)c(C#N)c1=O | H37Rv |  | MIC |  |  | VERO | >12.5 µg/mL
C[C@H]1COc2c(N3CCN(C)CC3)c(F)cc3c(=O)c(C(=O)O)cn1c23 | Strain 5 |  | MIC |  |  |  | 0.25 µg/mL
Cn1c(O)c(N=NC(=S)NCc2ccccc2)c2cc(OC(F)(F)F)ccc21 | H37Rv |  | EC50 |  | broth dilution / resazurin |  | 7.299 µg/mL
CO[C@H]1/C=C/O[C@@]2(C)Oc3c(C)c(O)c4c(=O)c(c5oc6cc(N7CCN(CC(C)C)CC7)cc(=O)c6nc5c4c3=C2O)NC(=O)/C(C)=C\C=C\[C@H](C)[C@H](O)[C@@H](C)[C@@H](O)[C@@H](C)[C@H](OC(C)=O)[C@@H]1C | TN794 |  | MIC |  |  |  | <1 µg/mL
CCOc1cc(/C=N/N=c2\scc(-c3cc4cc(Br)ccc4oc3=O)n2C2CCCCC2)ccc1O | H37Rv |  | MIC |  |  |  | >12.5 µg/mL
CCc1nc2ccc(C)cc2n1CCCNc1ccccc1 | H37Rv |  | MIC90 | WT | turbidity / fluorescence |  | 0.1 µM
C[C@@H]1CN(c2c(F)c(N)c3c(=O)c(C(=O)O)cn(C4CC4)c3c2F)C[C@H](C)N1 | 891868 |  | MIC |  |  |  | 0.2 µg/mL
O=C(N/N=C/c1c(F)c(F)c(F)c(F)c1F)c1cnc(C2C3CC4CC(C3)CC2C4)[nH]1 | H37Rv |  | MIC |  |  |  | >6.25 µg/mL
Cn1cnc2c(NS(=O)(=O)c3ccccc3)nc(Cl)cc21 | H37Rv |  | MIC99 |  | visual reading |  | >25 µM
CCCCn1c(-c2cc3cc(Br)ccc3oc2=O)cs/c1=N\N=C\c1ccc(O)c(OCC)c1 | H37Rv |  | EC50 |  |  |  | <12.5 µg/mL
CO[C@H]1/C=C/O[C@@]2(C)Oc3c(C)c(O)c4c(O)c(c(/C=N/N5CCN(C/C=C/c6ccccc6)CC5)c(O)c4c3C2=O)NC(=O)/C(C)=C\C=C\[C@H](C)[C@H](O)[C@@H](C)[C@@H](O)[C@@H](C)[C@H](OC(C)=O)[C@@H]1C | MTB2 (INH-R) |  | MIC |  |  |  | 0.25 µg/mL
C/C(O)=C(\C=N\C(=S)Nc1ccccc1)C(=O)Nc1ccccc1 | H37Rv |  | MIC bound |  | BACTEC |  | <6.25 µg/mL
COc1ccccc1Nc1nc(NNc2nc(-c3ccccc3)c(C#N)c(=O)n2C)nc(Nc2ccccc2OC)n1 | H37Rv | 12.5 µg/mL | inhibition |  |  |  | 63%
CCOC(=O)c1cnc(C(C)C)[nH]1 | H37Rv | 6.25 µg/mL | inhibition |  |  |  | 20%
Cc1ccc(Nc2nc(NNc3nc(-c4ccc(Cl)cc4)c(C#N)c(=O)n3C)nc(Nc3ccc(C)cc3C)n2)c(C)c1 | H37Rv | 12.5 µg/mL | inhibition |  |  |  | 56%
CC1(C)CC(=O)c2cc(C3OCC(O)C3O)[nH]c2C1 | H37Rv |  | MIC bound |  | BACTEC |  | >12.5 µg/mL
Cc1ccccc1NC(=O)Nc1nc(Cl)cc2c1ncn2C | H37Rv |  | MIC99 |  | visual reading |  | 25 µM
Nc1cc(O)c(C(=O)O)cc1F | H37Rv |  | MIC90 |  | resazurin |  | <3.13 µg/mL
Cn1cnc2c(NS(=O)(=O)c3cccc(C#N)c3)nc(Cl)cc21 | H37Rv |  | MIC99 |  | visual reading |  | >25 µM
O=C(O)c1cnc(C2CCCC2)[nH]1 | H37Rv |  | MIC |  |  |  | >6.25 µg/mL
NC[C@@H]1O[C@H](O[C@H]2[C@@H](O)[C@H](O[C@@H]3[C@@H](O)[C@H](N)C[C@H](N)[C@H]3O[C@H]3O[C@H](CO)[C@@H](O)C[C@H]3N)O[C@@H]2CO)[C@H](N)[C@@H](O)[C@@H]1O[C@H]1O[C@H](CO)[C@@H](O)[C@H](O)[C@@H]1O | H37Rv (streptomycin-resistant) |  | EC50 |  |  |  | 25–50 µg/mL
CCc1nc2ccccc2n1CCCCOc1ccc(Cl)cc1C | H37Rv |  | MIC90 | WT | turbidity / fluorescence |  | 13 µM
Cc1cc(O)c(-c2c(-c3ccccc3C(=O)O)oc3cc(C)c(C)cc23)cc1C | H37Rv | 12.5 µg/mL | inhibition |  | BACTEC |  | -12%
CCOC(=O)c1cn(C)c2c(cc([N+](=O)[O-])c3cccnc32)c1=O | H37Rv |  | MIC90 | gyrA mutation G88C |  |  | >50 µM
CCCC1C2=C(C(=O)OC2=O)C2C(CC)CC3=C(C(=O)OC3=O)C12 | H37Rv | 12.8 µg/mL | inhibition |  | BACTEC |  | 4%
CCCOc1ccc(NC(=O)OCCN2CCOCC2)cc1 | My 331/88 |  | MIC |  |  |  | 1000 µM
COc1ccc(/C=N/NC(=O)c2cnc(C3C4CC5CC(C4)CC3C5)[nH]2)cc1 | H37Rv |  | MIC |  |  |  | >6.25 µg/mL
C/C=C1\C(=O)O[C@]23C=C[C@@H]4C(C(=O)OC)=CO[C@H](O[C@@H]12)[C@@H]43 | MDR2 clinical isolate |  | MBC |  | MTT |  | 4.4 µg/mL
CO[C@H]1/C=C/O[C@@]2(C)Oc3c(C)c(O)c4c(O)c(c(/C=N/N5CCN(C)CC5)c(O)c4c3C2=O)NC(=O)/C(C)=C\C=C\[C@H](C)[C@H](O)[C@@H](C)[C@@H](O)[C@@H](C)[C@H](OC(C)=O)[C@@H]1C | PR326 |  | MIC |  |  |  | 0.08 µg/mL
COC(=O)c1ccccc1N=NC(C#N)C(N)=O | H37Rv |  | MIC bound |  | BACTEC |  | >12.5 µg/mL
CCOc1ccccc1NC(=O)OCC[NH+]1CCCC1 | My 331/88 |  | MIC |  |  |  | 1000 µM
CCc1nc2ccccc2n1CCCNc1ccc(C)c(C)c1 | H37Rv |  | fold resistance | QcrB M342T | turbidity / fluorescence |  | 11
Cc1ccc2[nH]c(O)c(N=NC(=S)Nc3ccc(Br)cc3)c2c1 | H37Rv |  | EC90 |  | broth dilution / resazurin |  | >100 µg/mL
Cn1c(NNc2nc(Nc3cc(Cl)cc(Cl)c3)nc(Nc3cc(Cl)cc(Cl)c3)n2)nc(-c2ccccc2)c(C#N)c1=O | H37Rv | 12.5 µg/mL | inhibition |  |  | VERO | 98%
O=C(O)/C=C/c1cnc[nH]1 | H37Rv | 6.25 µg/mL | inhibition |  |  |  | 22%
COc1c(N2CCNC(C)C2)c(F)cc2c(=O)c(C(=O)O)cn(C3CC3)c12 | Strain 102 |  | MIC |  |  |  | 2 µg/mL
O=[N+]([O-])c1ccc(NC(=S)N=Nc2c(O)[nH]c3ccc(OC(F)(F)F)cc23)cc1 | H37Rv |  | EC90 |  | broth dilution / resazurin |  | >100 µg/mL
CCn1c(-c2cc3ccccc3oc2=O)cs/c1=N\N=C\c1cc(Br)ccc1O | H37Rv |  | EC50 |  |  |  | <12.5 µg/mL
Cc1ccnc2c1ccc1c(C)ccnc12 | H37Rv |  | MIC |  | BACTEC | VERO | 1.6 µg/mL
CCOC(=O)c1cnc(C2CCCCC2)[nH]1 | H37Rv | 6.25 µg/mL | inhibition |  |  |  | 22%
Cn1c(NNc2nc(NCc3ccco3)nc(NCc3ccco3)n2)nc(-c2ccc(Cl)cc2)c(C#N)c1=O | H37Rv |  | MIC |  |  |  | >12.5 µg/mL
NNC(=O)c1ccncc1 | Isolate B |  | MIC |  |  |  | 0.031 µg/mL
CN1CCN(C(=O)Cc2c[nH]c3ccccc23)CC1 | H37Rv | 12.5 µg/mL | inhibition |  | BACTEC |  | 0%
CCCCCCCOc1ccccc1NC(=O)OCCN1CCOCC1 | My 331/88 |  | MIC |  |  |  | 32 µM
CCc1nc2ccccc2n1CCCCOc1cccc(C)c1 | H37Rv |  | fold resistance | QcrB T313I | turbidity / fluorescence |  | 70
CCOc1cccc(NC(=O)OCC[NH+]2CCCC2)c1 | My 331/88 |  | MIC |  |  |  | >1000 µM
CCc1nc2ccccc2n1CCCCSc1ccc2ccccc2c1 | H37Rv |  | MIC99 |  | turbidity / fluorescence |  | 4.1 µM
Cn1c(NNc2nc(Nc3cccc(Cl)c3)nc(Nc3cccc(Cl)c3)n2)nc(-c2ccccc2)c(C#N)c1=O | H37Rv | 12.5 µg/mL | inhibition |  |  | VERO | 92%
C=CCn1c(-c2cc3ccccc3oc2=O)cs/c1=N\N=C\c1ccc(O)c(OCC)c1 | H37Rv |  | MIC |  |  |  | <12.5 µg/mL
CCOC(=O)c1cnc2c(ccc3[nH]cccc32)c1=O | H37Rv |  | MIC |  | BACTEC |  | ≥12.5 µg/mL
Cn1cnc2c(NS(=O)(=O)c3ccccc3Cl)nc(Cl)cc21 | H37Rv |  | MIC99 |  | visual reading |  | 25 µM
NC(=O)C(=O)C1C(=O)N(c2ccccc2)N=C1N | H37Rv | 6.25 µg/mL | inhibition |  | resazurin |  | 14%
CC(C)c1nc(C(=O)O)c(C(C)C)[nH]1 | H37Rv |  | MIC |  |  |  | >6.25 µg/mL
COC(=O)c1cc(-c2ccc(OC)cc2)c2c(=O)n(-c3ccccc3)[nH]c2n1 | H37Rv |  | MIC bound |  | BACTEC |  | >12.5 µg/mL
CCn1cc(C(=O)O)c(=O)c2cc([N+](=O)[O-])c3cccnc3c21 | BCG |  | MIC90 |  |  |  | 2.67 µM
NC(=O)c1cnccn1 | Isolate 97-983 |  | MIC |  |  |  | 100 µg/mL
C[Si]1(C)N[Si](C)(C)N[Si](C)(C)N1 | H37Rv |  | MIC |  | BACTEC |  | ≥128 µg/mL
CCOC(=O)c1nc(C(C)C)[nH]c1C(C)C | H37Rv | 6.25 µg/mL | inhibition |  |  |  | 5%
Cc1ccc2[nH]c(O)c(N=NC(=S)Nc3ccc(Cl)cc3)c2c1 | H37Rv |  | EC50 |  | broth dilution / resazurin |  | 2.526 µg/mL
CCCC1=NNc2n[nH]c(=S)n2N1 | H37Rv | 12.5 µg/mL | inhibition |  | BACTEC |  | 0%
COc1ccccc1Nc1nc(NNc2nc(-c3ccc(Cl)cc3)c(C#N)c(=O)n2C)nc(Nc2ccccc2OC)n1 | H37Rv |  | EC50 |  |  |  | >12.5 µg/mL
CCCCc1ccc(-n2c3nc(=O)n(C)c(=O)c-3nc3ccccc32)cc1 | H37Rv |  | MIC |  | BACTEC |  | 1.56 µg/mL
COC(=O)CNC(=O)c1cnc(C(C)(C)C)[nH]1 | H37Rv |  | MIC |  |  |  | >6.25 µg/mL
Cn1c(NNc2nc(Nc3cc(Cl)cc(Cl)c3)nc(Nc3cc(Cl)cc(Cl)c3)n2)nc(-c2ccc(Cl)cc2)c(C#N)c1=O | H37Rv |  | MIC |  |  |  | >12.5 µg/mL
CN(C)C(=S)SC1(CN2CCOCC2)COc2c(Cl)cc(Cl)cc2C1=O | H37Rv | 128 µg/mL | inhibition |  | BACTEC |  | 100%
Cn1cnc2c(NC(=O)c3ccc(C(F)(F)F)cc3)nc(Cl)cc21 | H37Rv |  | MIC99 |  | visual reading |  | 0.25 µM
O=C1c2cccc3c(Br)ccc(c23)C(=O)N1C1CCCCCCCCCCC1 | H37Rv | 6.25 µg/mL | inhibition |  | resazurin |  | -4%
CNC(=S)N=Nc1c(O)n(C)c2ccc(C)cc12 | H37Rv |  | EC90 |  | broth dilution / resazurin |  | >100 µg/mL
CCOC(=O)NC(C)(C)CN(C(=O)OCC)C(C)(C)CO | H37Rv |  | MIC |  | BACTEC |  | ≥12.8 µg/mL
CCc1nc2ccccc2n1CCCCSc1ccc2ccccc2n1 | H37Rv |  | MIC99 |  | turbidity / fluorescence |  | 18 µM

A second listing of 4 rows from above:

{"SMILES": "Cc1ccnc2c1ccc1c(C)ccnc12", "strain": "H37Rv", "measure": "MIC", "read by": "BACTEC", "cell line": "VERO", "result": "1.6 µg/mL"}
{"SMILES": "O=C(O)c1cnc(C2CCCC2)[nH]1", "strain": "H37Rv", "measure": "MIC", "result": ">6.25 µg/mL"}
{"SMILES": "CCCCCCCCOc1ccc(NC(=O)OCCN2CCCCCC2)cc1", "strain": "My 331/88", "measure": "MIC", "result": "8 µM"}
{"SMILES": "CO[C@H]1/C=C/O[C@@]2(C)Oc3c(C)c(O)c4c(=O)c(c5oc6cc(N7CCN(CC(C)C)CC7)cc(=O)c6nc5c4c3=C2O)NC(=O)/C(C)=C\\C=C\\[C@H](C)[C@H](O)[C@@H](C)[C@@H](O)[C@@H](C)[C@H](OC(C)=O)[C@@H]1C", "strain": "TN794", "measure": "MIC", "result": "<1 µg/mL"}